Compound potency records, mixed from different reports. Data source: NIAID ChemDB in PubChem.

Common to all: tests in culture; organism: Mycobacterium tuberculosis

Two numbers with a dash give a range or band.

SMILES,conditions,read-out,strain or isolate,cell line,tested at,read by,value
CS(=O)c1nnc(-c2ccc([N+](=O)[O-])o2)s1,,MIC,H37Rv,,,,3.13 µg/mL
O=[N+]([O-])c1ccc(C=Nc2ccc(-c3nnc(SCc4ccc(Cl)cc4Cl)n3-c3ccccc3)cc2)o1,,inhibition,H37Rv,,6.25 µg/mL,,50–59%
CC1=CC[C@@H](Br)C(C)(C)[C@]12CC[C@]1(C)O[C@@H]1C2,,MIC,H37Rv,,,BACTEC,≥12.5 µg/mL
CN(C)C(=O)CC(CSc1ccccc1)Nc1c(C(=O)N/N=C/c2ccc(Br)s2)cnc2cc(F)ccc12,,MIC,H37Rv,,,resazurin,>100 µg/mL
Fc1ccc(NC(=S)Nc2ncc(C3CCC3)o2)cc1,,MIC,H37Rv,,,agar,0.68 µM
CC1(O)c2ccccc2C2c3cc(Br)ccc3-n3nnnc3C21,,inhibition,H37Rv,,6.25 µg/mL,BACTEC / radiometric,51%
Cc1cnc(NC(=S)Nc2ncc(C3CCC3)o2)cc1C,,MIC,H37Rv,,,agar,0.62 µM
O=C(N/N=C/c1ccc2c(c1)OCO2)c1ccncc1,,MIC,,,,,1 µg/mL
COc1ccc(/C=N/NC(=O)c2cnc3cc(F)ccc3c2NC(CSc2ccccc2)CC(=O)N(C)C)cc1O,,MIC,H37Rv,,,resazurin,5 µg/mL
Cc1ccc(-n2c(SCc3ccc(Cl)cc3Cl)nnc2-c2ccc(N=Cc3ccc(Cl)cc3)cc2)cc1,,EC50,H37Rv,,,,>6.25 µg/mL
COc1ccc(CCN2C(=O)C(=O)N(c3cccc(Cl)c3)C2=O)cc1OC,,MIC bound,H37Rv,,,BACTEC,>12.5 µg/mL
COc1cc(O)c2c(=O)c(OC)c(-c3ccc(O)cc3)oc2c1,,inhibition,H37Rv,,100 µg/mL,BACTEC,48%
CC(C)n1c(-c2ccc(O)cc2)cs/c1=N\NC(=O)COc1cnccn1,,MIC,H37Rv,,,,8.4 µg/mL
CCCCCCCCCCCC[n+]1ccccc1.CCCCCCCCCCCC[n+]1ccccc1.S=C([S-])NCCNC(=S)[S-],,MIC,H37Rv,,,BACTEC,≥12.5 µg/mL
O=C(O)c1cc(-c2ccc(OCc3c(Cl)cccc3Cl)cc2)sc1NCc1ccccc1,,EC50,H37Rv,,,resazurin,58.2 µM
COc1cc2c(c(O)c1OC)-c1c(cc(OC)c(OC)c1OC)C[C@@H](C)[C@@H](C)C2,,MIC,H37Rv,,,BACTEC,≥12.5 µg/mL
FC(F)(F)c1ccccc1NC(=S)Nc1ncc(C2CCC2)o1,,MIC,MDR clinical isolate,,,agar,0.14 µM
O=C(N/N=C/c1ccccc1[N+](=O)[O-])c1ccncc1,,MIC,,,,,0.1 µg/mL
Cc1ccc(Nc2ncnc3sc(SCc4ccccc4)nc23)cc1,,MIC bound,H37Rv,,,BACTEC,>12.5 µg/mL
CCOC(=O)COc1cnccn1,,MIC,H37Rv,,,,>200 µg/mL
O=C(Nc1ccc(Br)cc1)c1cnccn1,,MIC,ATCC 27294,,,resazurin,>100 µg/mL
O=C(Oc1cc(Br)ccc1C(=O)Nc1ccc(C(F)(F)F)cc1)c1ccccc1,14 d,MIC100,H37Rv,,,broth dilution,1 µM
Cc1cc(C(=O)NN)c2ccccc2n1,,MIC,,,,,10 µg/mL
O=C(Nc1sc(-c2ccc(OCc3c(Cl)cccc3Cl)cc2)cc1C(=O)O)c1ccccc1F,,EC50,H37Rv,,,resazurin,28.64 µM
Cc1c(NC(=S)NC(=O)c2ccc([N+](=O)[O-])cc2)c(=O)n(-c2ccccc2)n1C,,MIC bound,H37Rv,,,BACTEC,>12.5 µg/mL
O=C1c2ccccc2-c2c1c(NCCO)nc1ccc(Br)cc21,,inhibition,H37Rv,,6.25 µg/mL,BACTEC / radiometric,25%
Cc1ccccc1NC(=O)c1cnccn1,,MIC,ATCC 27294,,,resazurin,100 µg/mL
COC1=CC23CC(CC(c4cc(OC)c(OC)c(OC)c4)C2C)OC3=CC1=O,,inhibition,H37Rv,,12.5 µg/mL,BACTEC,17%
O=Nc1c2c3nn[nH]n3c3ccc(Br)cc3c-2c2ccccc12,,inhibition,H37Rv,,6.25 µg/mL,BACTEC / radiometric,43%
O=C(NC1CCCCCCC1)c1c(C2CCCCC2)nc2cc(Cl)ccn12,,MIC90,H37Rv,,,resazurin,>168 µM
NC1CCC(CC2CCC(NCc3ccc(-c4ccc(Cl)cc4)o3)CC2)CC1,,MIC,H37Rv,,,,1.56 µM
COc1ccc(/C=N/NC(=O)c2cnc3cccc(C(F)(F)F)c3c2NC(CSc2ccccc2)CC(=O)N(C)C)c(F)c1,,MIC,H37Rv,,,resazurin,10 µg/mL
CC(=O)N[C@@H](Cc1ccccc1)C(=O)Oc1cc(Cl)ccc1C(=O)Nc1ccc(Cl)c(Cl)c1,14 d,MIC100,H37Rv,,,broth dilution,0.5 µM
Cc1ccc(/C=N/NC(=O)c2ccncc2)cc1,,MIC,,,,,0.1 µg/mL
CCCNc1sc(-c2ccc(OCc3c(Cl)cccc3Cl)cc2)cc1C(=O)O,,MIC,H37Rv,,,resazurin,7.5 µM
C/C=C(\C)C(=O)N[C@@H](c1ccccc1)[C@@H](O)C(=O)OC1C[C@@]2(O)[C@@H](OC(=O)c3ccccc3)[C@@H]3[C@]4(OC(C)=O)CO[C@@H]4C[C@H](O)[C@@]3(C)C(=O)[C@H](OC(C)=O)C(=C1C)C2(C)C,,inhibition,H37Rv,,12.5 µg/mL,BACTEC,-34%
CCCCn1c(-c2ccccc2)cs/c1=N\NC(=O)COc1cnccn1,,MIC,H37Rv,,,,21 µg/mL
CCOC(=O)c1nc(C)oc1C(=O)OCC,,MIC bound,H37Rv,,,BACTEC,>12.5 µg/mL
CO[C@@H]1[C@H](O)[C@@H](C)O[C@@H](OC[C@H](C)[C@H]2OC(=O)[C@H](C)[C@@H](O[C@H]3C[C@@H](C)N(C)C[C@H](C)O3)[C@H](C)[C@@H](O[C@@H]3O[C@H](C)C/C(=C\C#N)[C@H]3O)[C@@H](C)C[C@](C)(OC(=O)N3C[C@@H](C)O[C@@H](C)C3)C(=O)[C@H](C)[C@H](OC(=O)CC(C)C)[C@H]2C)[C@@H]1OC,,MIC,H37Rv,,,resazurin,0.424 µM
O=C(NC1CCCCCCC1)c1cn2ccc(Cl)cc2n1,,MIC90,H37Rv,,,resazurin,>209 µM
C=C(C)[C@@H]1CC=C(CN2CCCN(CC3=CC[C@H](C(=C)C)CC3)CC2)CC1,,MIC,H37Rv,,,,12.5 µM
Clc1nc(Nc2nc3ccccc3[nH]2)nc(Cl)c1-c1ccccc1,,inhibition,H37Rv,,6.25 µg/mL,BACTEC,89%
COc1ccc(/C=N/NC(=O)c2cnc3cccc(C(F)(F)F)c3c2NC(CSc2ccccc2)CC(=O)N(C)C)cc1O,,MIC,H37Rv,,,resazurin,5 µg/mL
O=C(COc1cnccn1)N/N=C1\SCC(=O)N1c1ccc(Cl)cc1[N+](=O)[O-],,MIC,H37Rv,,,,89 µg/mL
Cn1c2ccccc2c2nn3cnnc3nc21,,inhibition,H37Rv,,6.25 µg/mL,resazurin,54%
O=[N+]([O-])c1ccc(CS(=O)(=O)c2nnc(-c3ccc([N+](=O)[O-])o3)s2)cc1,,inhibition,H37Rv,,6.25 µg/mL,,79%
CCn1cc(C(=O)O)c(=O)c2cc(F)c(N3CCNC(C)C3)c(F)c21,,MIC,H37Rv,,,,2 µg/mL
O=C(Oc1ccc(Cl)cc1C(=O)Nc1ccc(C(F)(F)F)cc1)c1cnccn1,14 d,MIC100,H37Rv,,,broth dilution,1 µM
O=c1c2cnc3c4cccnc4ccc3c2[nH]n1-c1ccccc1,,MIC bound,H37Rv,,,BACTEC,>12.5 µg/mL
CSc1nnc(-c2ccc([N+](=O)[O-])o2)s1,,MIC,H37Rv,,,,6.25 µg/mL
CC(=O)N[C@@H](Cc1ccccc1)C(=O)Oc1cc(Br)ccc1C(=O)Nc1ccc(C(F)(F)F)cc1,14 d,MIC100,H37Rv,,,broth dilution,0.25 µM
CCS(=O)c1nnc(-c2ccc([N+](=O)[O-])o2)s1,,MIC,H37Rv,,,,1.56 µg/mL
COc1ccc(C)c(NCc2cnc3nc(N)nc(N)c3c2C)c1,,MIC,H37Rv,,,,6.25 µg/mL
O=C(C[n+]1ccccc1)N/N=C/c1ccc(Cl)cc1.[Cl-],,MIC,,,,,>200 µg/mL
O=C(Oc1cc(Cl)ccc1C(=O)Nc1ccc(Cl)c(Cl)c1)c1ccccc1,14 d,MIC100,H37Rv,,,broth dilution,1 µM
CP1(=S)CCC2=C1CCc1cc(O)ccc12,,MIC bound,H37Rv,,,resazurin,>6.25 µg/mL
O=C(NN=C1CCCCC1)c1cccnc1,,MIC,,,,,10 µg/mL
CO[C@@H]1[C@H](O)[C@@H](C)O[C@@H](OC[C@H](C)[C@H]2OC(=O)[C@H](C)[C@@H](O[C@H]3C[C@@H](C)N(C)C[C@H](C)O3)[C@H](C)[C@@H](O[C@@H]3O[C@H](C)C/C(=C\C#N)[C@H]3O)[C@@H](C)C[C@](C)(OC(=O)N3C[C@H](C)O[C@@H](C)C3)C(=O)[C@H](C)[C@H](OC(=O)CC(C)C)[C@H]2C)[C@@H]1OC,,MIC,H37Rv,,,resazurin,0.55 µM
CSCCC/C=N/NC(=O)c1cnc2cccc(C(F)(F)F)c2c1NC(CSc1ccccc1)CC(=O)N(C)C,,MIC,H37Rv,,,resazurin,10 µg/mL
CC(C)CN1C(=O)CS/C1=N\NC(=O)COc1cnccn1,,MIC,H37Rv,,,,128 µg/mL
S=C(Nc1ccc(Cl)cc1)Nc1ncc(C2CCC2)o1,,MIC,MDR clinical isolate,,,agar,1.23 µM
O=C1Oc2ccccc2C(=O)Oc2ccccc2C(=O)Oc2ccccc2C(=O)Oc2ccccc21,,MIC,H37Rv,,,BACTEC,≥12.5 µg/mL
Cc1ccc(-n2c(SCc3ccccc3)nnc2-c2ccc(N=Cc3ccc(Cl)cc3)cc2)cc1,,inhibition,H37Rv,,6.25 µg/mL,,<50%
O=C(N/N=C/c1ccco1)c1cccnc1,,MIC,,,,,10 µg/mL
CC(C)=CCNc1sc(-c2ccc(OCc3c(Cl)cccc3Cl)cc2)cc1C(=O)O,,MIC,H37Rv,,,resazurin,15.1 µM
O=C(CNC(=O)n1ccnc1)N/N=C/c1ccco1,,MIC bound,H37Rv,,,BACTEC,>12.5 µg/mL
CC1(O)C2=C(c3cc(Br)ccc3N3CCN=C23)c2ccccc21,,inhibition,H37Rv,,6.25 µg/mL,BACTEC / radiometric,52%
Cc1[nH]nc(C(=O)N/N=C/c2cccs2)c1N=NN(C)C,,MIC bound,H37Rv,,,BACTEC,≤12.5 µg/mL
O=C(Nc1ccc([N+](=O)[O-])cc1)c1cnccn1,,MIC,ATCC 27294,,,resazurin,>100 µg/mL
O=c1cccc(NC(=S)Nc2ncc(C3CCC3)o2)[nH]1,,MIC,H37Rv,,,agar,10.78 µM
O=[N+]([O-])c1ccc(-c2nnc(SCc3ccc(F)cc3Cl)s2)o1,,inhibition,H37Rv,,6.25 µg/mL,,0%
C=C(CC[C@@H](C)[C@H]1CC[C@H]2[C@@H]3[C@@H](C=O)[C@]4(O)C[C@@H](O)CC[C@]4(C)[C@H]3CC[C@]12C)C(C)C,,MIC,H37Rv,,,,11.2 µg/mL
Cn1nc(N)c2cc(C(N)=O)c(N)nc21,,inhibition,H37Rv,,12.5 µg/mL,BACTEC,6%
Cc1ccc(-n2c(SCc3ccc(Cl)cc3Cl)nnc2-c2ccc(N)cc2)cc1,,inhibition,H37Rv,,6.25 µg/mL,,<50%
Cc1nc2ccc(Cl)cn2c1C(=O)NC1CCCCCCC1,,MIC90,H37Rv,,,resazurin,>200 µM
O=C(Nc1sc(-c2ccc(OCc3c(Cl)cccc3Cl)cc2)cc1C(=O)O)c1ccc(Cl)cc1,,EC50,H37Rv,,,resazurin,53.81 µM
COc1ccc(-c2cc(-c3ccco3)c(C#N)c(=S)n2C2OC(CO)C(O)C(O)C2O)cc1,,MIC bound,H37Rv,,,BACTEC,>12.5 µg/mL
O=C(Nc1ccccc1[N+](=O)[O-])c1cnccn1,,MIC,ATCC 27294,,,resazurin,>100 µg/mL
S=C(Nc1ccccc1)Nc1ncc(C2CCC2)o1,,MIC,H37Rv,,,agar,11.46 µM
C[N+](C)(C)C(Cc1ccccc1)C(=O)[O-],,EC50,,VERO,,,>64 µg/mL
c1ccc2c(c1)Nc1ccccc1O2,,inhibition,H37Rv,,12.5 µg/mL,BACTEC,79%
O=C(NN=C1CCCCC1)c1ccncc1,,MIC,,,,,0.01–0.1 µg/mL
CC1(O)c2ccccc2-c2c1c1nncn1c1ccc(Br)cc21,,inhibition,H37Rv,,6.25 µg/mL,BACTEC / radiometric,66%
CN(C)c1ccc2c(Cl)cc(=O)[nH]c2c1.[K+].[OH-],,MIC bound,H37Rv,,,BACTEC,>12.5 µg/mL
CC(C)CNc1sc(-c2ccc(OCc3c(Cl)cccc3Cl)cc2)cc1C(=O)O,,MIC,H37Rv,,,resazurin,7.8 µM

MIC bound: limit read from a one-dose screen. ECn is the concentration giving n% inhibition of infection, replication or growth. Lines come from different laboratories, so protocols vary. A number after MIC or MFC names an inhibition level or a share of isolates. Inhibition is in % at the dose shown (toxicity tests: loss of growth or viability). Blank or dashed fields: not listed here.